B1: Murinoglobulin-1 (protein, UniProt P28665 28-1476, looked up)
Murinoglobulin-1: DSKYMVLVPSQLYTETPEKICLHLYQLNETVTVTASLVSQSGRKNLFDELVLDKDLFQCVSFIIPRLSSSDEEDFLYVDIKGPTHEFSKRKAVLVKNKESVVFVQTDKPVYKPGQSVKFRVVSMDKMLRPLNELLPLAYIEDPKKNRIMQWRDIKTENGLKQMSFSLAAEPIQGPYKIVVHKESGEKEEHSFTVMEFVLPRFNVDLKVPNAMSVNDEVLSVTACGKYTYGKPVPGHVKINVCRETETGCREVNSQLDNNGCSTQEVNITELQSKKRNYEVQLFHVNATVTEEGTGLEFSRSGTTKIERITNKLIFLKADSHFRHGIPFFVKVRLVDIKGDPIPNEKVFIKAQELSYTSATTTDQHGLAEFSIDTTCISGSSLHIKVNHKEEDSCSYFYCMEERHASAKHVAYAVYSLSKSYIYLDTETSSILPCNQIHTVQAHFILKGDLGVLKELIFYYLVMAQGSIIQTGNHTHQVEPGEAPVKGKFALEIPVEFSMVPMAKMLIYTILPDGEVIADSVNFEIEKCLRNKVDLRFSTSQSLPASQTRLQVTASPQSLCGLRAVDQSVLLLKPESELSPSWIYNLPGMQQNKFVPSSRLSEDQEDCILYSSWLAEKHTNLVPHGTEKDVYRYVEDMGLTAFTNLMIKLPIICFDYGMVPISAPRVEFDLAFTPEISWSLRTTLSKRPEEPPRKDPSSNDPLTETIRKYFPETWVWDIVTVNSTGLAEVEMTVPDTITEWKAGALCLSNDTGLGLSSVVPLQAFKPFFVEVSLPYSVVRGEAFMLKATVMNYLPTSMQMSVQLEASPDFTAVPVGDDQDSYCLSANGRHTSSWLVTPKSLGNVNFSVSAEAQQSSEPCGSEVATVPETGRKDTVVKVLIVEPEGIKQEHTFSSLFCASDAEISEKMSLVLPPTVVKDSARAHFSVMGDILSSAIRNTQNLLHMPYGCGEQNMVLFAPNIYVLKYLNETQQLTQKIKTKALGFLRAGYQRELNYKHKDGSYSAFGDQNGEREGNTWLTAFVLKSFAQARAFIFIDESHITHAFTWLSQKQKDNGCFRSSGSLFNNAMKGGVDDEMTLSAYITMALLESSLPATHPVVSKALSCLESSWKTIEQERNASFVYTKALMAYAFALAGNQNKRDEILKSLDEEAIKENNSIHWKRPQKSRKSEHHLYKPQASSAEVEMNAYVVLARLTAQPAPSPEDLTLSMSTIMWLTKQQNSNGGFSSTQDTVVALDALSKYGAVTFSRSQKTTLVTIQSTGSFSQKFQVENSNRLLLQQVALPDIPGDYTISVSGEGCVYAQTMLRYNMHLEKQLSAFAIWVQTVPLTCNNPKGHNSFQISLEISYTGSRPASNMVIADVKMLSGFIPLKPTVKKLERLEHVSRTEVSNNNVLIYLDQVTNQTLAFSFIIQQDIPVRNLQPAIVKVYDYYETDEMAFAEYSSPCSTDKQNV
B2: Carboxypeptidase N catalytic chain (protein, UniProt Q9JJN5 24-457, looked up)
Carboxypeptidase N catalytic …: RHHRYDDLVRTLYKVHNQCPDITRLYNIGRSVKGRYLYVLEFSDYPGIHEPLEPEVKYVGNMHGNEVLGRELLLQLSEFLCEEFRNRNQRILRLIQDTRIHILPSMNPDGYEVAAAQGPNMSGYLVGRNNANGVDLNRNFPDLNTYFYYNSKNGGPNHHLPLPDNWKSQVEPETRAVIQWIRSLNFVLSANMHGGAVVANYPYDKSLEHRFRGPHRTSNSPTPDDELFQTLAKVYSYAHGWMHQGWNCGDYFPDGITNGASWYSLSKGMQDFNYLHTNCFEITLELSCDKFPRQEELQREWLGNREALIQFLEQVHQGIKGMVLDENSNNLTGAVISVTGINHDVTSGEHGDYFRLLLPGTYSVTAKAPGYDPKTVTVTVGPAGPTVVDFQLKRSSSQVYPVQRAPGRGQGGRAKQPRTSRKKDPATKRHRGPA
B3: Interleukin-1 receptor accessory protein (protein, UniProt Q61730 21-570, looked up)
Interleukin-1 receptor …: SERCDDWGLDTMRQIQVFEDEPARIKCPLFEHFLKYNYSTAHSSGLTLIWYWTRQDRDLEEPINFRLPENRISKEKDVLWFRPTLLNDTGNYTCMLRNTTYCSKVAFPLEVVQKDSCFNSAMRFPVHKMYIEHGIHKITCPNVDGYFPSSVKPSVTWYKGCTEIVDFHNVLPEGMNLSFFIPLVSNNGNYTCVVTYPENGRLFHLTRTVTVKVVGSPKDALPPQIYSPNDRVVYEKEPGEELVIPCKVYFSFIMDSHNEVWWTIDGKKPDDVTVDITINESVSYSSTEDETRTQILSIKKVTPEDLRRNYVCHARNTKGEAEQAAKVKQKVIPPRYTVELACGFGATVFLVVVLIVVYHVYWLEMVLFYRAHFGTDETILDGKEYDIYVSYARNVEEEEFVLLTLRGVLENEFGYKLCIFDRDSLPGGIVTDETLSFIQKSRRLLVVLSPNYVLQGTQALLELKAGLENMASRGNINVILVQYKAVKDMKVKELKRAKTVLTVIKWKGEKSKYPQGRFWKQLQVAMPVKKSPRWSSNDKQGLSYSSLKNV
B4: Immunoglobulin J chain (protein, UniProt P01592 22-159, looked up)
Immunoglobulin J chain: GDDEATILADNKCMCTRVTSRIIPSTEDPNEDIVERNIRIVVPLNNRENISDPTSPLRRNFVYHLSDVCKKCDPVEVELEDQVVTATQSNICNEDDGVPETCYMYDRNKCYTTMVPLRYHGETKMVQAALTPDSCYPD
B5: Complement C1q subcomponent subunit A (protein, UniProt P98086 23-245, looked up)
Complement C1q subcomponent …: EDVCRAPNGKDGAPGNPGRPGRPGLKGERGEPGAAGIRTGIRGFKGDPGESGPPGKPGNVGLPGPSGPLGDSGPQGLKGVKGNPGNIRDQPRPAFSAIRQNPMTLGNVVIFDKVLTNQESPYQNHTGRFICAVPGFYYFNFQVISKWDLCLFIKSSSGGQPRDSLSFSNTNNKGLFQVLAGGTVLQLRRGDEVWIEKDPAKGRIYQGTEADSIFSGFLIFPSA
B6: Keratin, type II cytoskeletal 2 epidermal (protein, UniProt Q3TTY5 1-707, looked up)
Keratin, type II cytoskeletal …: MSCQISCRSRRGGGGGGGGGFRGFSSGSAVVSGGSRRSNTSFSCISRHGGGRGGSGGGGFGSQSLVGLGGYKSISSSVAGNSGGYGGSSFGGSSGFGGGRGFGGGQGFGGSGGFGGGSGFGGGQGFGGGSRFGGGSGFGGGGFGGGSFGGGRFGGGPGGFGGPGGFPGGGIHEVSVNQSLLQPLDVKVDPEIQNVKSQEREQIKTLNNKFASFIDKVRFLEQQNQVLRTKWELLQQLDVGSRTTNLDPIFQAYIGMLKKQVDRLSAERTSQESELNNMQDLVEDFKKKYEDEINKRTSAENDFVTIKKDVDSCYMDKTELQARLDILAQEVNFLRTLYDAELSQLQQDVTDTNVILSMDNNRNLDLDSIIAEVQNQYEMIAHKSKAESEELYHSKYEELQVTAVKHGDSLKEIKMEISELNRTIQRLQGEISHVKKQCKGVQDSIADAEQRGEHAIKDARGKLTDLEEALQQCREDLARLLRDYQELMNTKLSLDVEIATYRKLLEGEECRMSGDFSDNVSVSITSSTISSSVASKTGFGSGGQSSGGRGSYGGRGGGGGGGSTYGSGGRSSGSRGSGSGSGGGGYSSGGGSRGGSGGGYGSGGGSRGGSGGGYGSGGGSGSGGGYSSGGGSRGGSGGGGVSSGGGSRGGSSSGGGSRGGSSSGGGGYSSGGGSRGGSSSGGAGSSSEKGGSGSGEGCGSGVTFSFR
B7: Keratin, type II cytoskeletal 1 (protein, UniProt P04104 1-637, looked up)
Keratin, type II cytoskeletal …: MSLQCSSRSLCRGGGGSRNFSSGSAGLVSFQRRSTSSSMRRSGGGGGGRFSGGGFCGSSGSGFGSKSLMNLGGGRSISKSVAGGGGSFCGGFGGGSYGGGGFGGGSYGGGGFGGGSFGGGGFGGSGFGGGLGGGGGFGSGGGFGGGRFGSMGPVCPPGGIQEVTINQSLLQPLNVEVDPQIQKVKSQEREQIKSLNDKFASFIDKVRFLEQQNQVLQTKWELLQQVDTTTRTQNLDPFFENYISILRRKVDSLKSDQSRMDSELKNMQDLVEEYRTKYEDEINKRTNAENEFVTIKKDVDSAYMTKVELQAKADALQQDIDFFSALYQMEMSQMQTQISETNVVLSMDNNRSLDLDGIISEVKAQYDSICQRSKAEAETFYQSKYEELQITAGKHGDSVRNTKMEISELNRMIQRLRSEIDGCKKQISQIQQNINDAEQRGEKALKDAQNKLNEIEDALSQCKEDLARLLRDFQELMNTKLALDMEIATYKKLLEGEEIRMSGECTPNVSVSVSTSHTSMSGSSSRGGGSGGGRYGGGGSYGGGSGGGSYGGSSGGGGSGGSYGGGSGGGSYGGGSGGGSSGSHRGGSGGGGGSSGGSYGGSSGGGRGGSSSGGGGVKSSGSSTVKFVSTSYSRGTK
B8: Keratin, type II cytoskeletal 1b (protein, UniProt Q6IFZ6 1-572, looked up)
Keratin, type II cytoskeletal …: MSRQFSSQSAFSSRSRRAYSSRSSSGFGGGRQALVSVSQSRRYGGDYGGGFSSRSLYSLGGSKSIFGNLVGRSASGFCQSRGPGGGFGGGIGGGIGGGRGFGGGGFGGGYGGGGRFGGGFGGAGFGFGGFGPSYPPGGIHEVTINQSLLEPLHLEVDPEIQRVKTQEREQIKTLNNKFASFIDKVRFLEQQNQVLQTKWELLQQVNTSTRTSSLEPVFEEFISQLQRQVDVLTTEQLRQNTEIRNMQDVVEDYKNKYEDEINKRTNAENDFVVLKKDVDAAFMGKSDLQSKVDTLYGEINFLKYLFDTELSQIQTHVSDTNVILSMDNNRSLDLDSIIDAVRAQYEIIAQKSKDEAEALYQTKYQELQITAGKHGDDLKNSKMEISELNRNIQRLRAEIANIKKQVEGMHGLISDAEERGERALQNAKQKLQDMEEALQQAKEDLAKLLRDYQAMLGAKLSLDVEIATYRQLLEGEESRMSGALQSQVSISVQSSQVTIGGGGGGSGSYSGSSRGGGGGGGGTGSRGGGGGGGGSSYVSSSRSATKYGSGGGSSRTQILQTSTHSSRRHVVE
B9: Keratin, type II cytoskeletal 75 (protein, UniProt Q8BGZ7 1-551, looked up)
Keratin, type II cytoskeletal …: MSRQSTITFHSGSRRGFSTASATTPTAGRSRFSSVSVARSSGNSGGLGRISGIGSGFGSRSLYNLGGTRRVSIGGCAGSGFRGGFGGRTSSGFGGSSGFAYGGGIGGGFGGPGFSVCPSGGIQEVTVNQSLLTPLNLQIDPTIQRVRKEEREQIKTLNNKFASFIDKVRFLEQQNKVLETKWNLLQEQGSRTVRQNLEPFFDTYVNDLRRQLDGITAERGRLDAELRNMQEVVEDFKVRYEDEINKRAAAENEFVGLKKDVDSAYMNKVELEAKVDSLTDQINFYRMIYEAELSQMQNQVSDTSVVLSMDNNRSLDLDSIIAEVKAQYEDIANRSRAEAESWYQTKYEELQVTAGRHGDDLRNTKQEISEMNRMIQRLRSEIDAVKKQCSSLQTAISDAEQRGELALKDARAKLMELEDALQKAKQDMARLLREYQELMNVKLALDVEIATYRKLLEGEECRLSGEGVSPVNISVVTSTVSSGYGGGANIGGGSLGLGGNSGYSFTTSGGHSLGTGLGGSGFTTTSSRGPVGSGSSIKFVSSTSSRKSYKH

System: coronal proteins on NPs
Parameters: species or system mouse
Conditions: HBPE-NPs incubated 1 h with IAV day 5 (V5) mouse sera, 20:1 NP:sera, centrifuged and washed

Molecule | V5 Sera_Nanoparticles Quantitative Value (Normalized Total Spectra)
B1 | 63.099
B2 | 4.3517
B3 | 4.3517
B4 | 4.3517
B5 | 4.3517
B6 | 3.2638
B7 | 3.2638
B8 | 3.2638
B9 | 3.2638

Same assay, conditions: IAV day 5 (V5) mouse sera alone, no NPs (sera-only control)

Molecule | V5 Sera Alone (Control) Quantitative Value (Normalized Total Spectra)
B1 | 61.99
B2 | 1.8505
B3 | 0.9252
B4 | 2.7757
B5 | 0
B6 | 5.5514
B7 | 12.953
B8 | 7.4018
B9 | 5.5514

— patent US20240122867A1, “CORONAL PROTEIN-COATED NANOPARTICLES AND USES THEREOF” (UNIVERSITY OF CENTRAL FLORIDA RESEARCH FOUNDATION, INC., priority 2021, published 2024)
